Measured values: article PMC5608353 (PLoS ONE, 2017)
Converted amounts (≈) assume the structure as drawn. “And” between values parts separate entries of the source, which are not always exact repeats. Equal values may be shown once.

Columns and labels:
C. perfringens JZ10 = conditions: JZ10, 18 h
[1] = test system: C. perfringens CVCC 46 genomic DNA; format: binding, Clostridium perfringens type A
C. perfringens CVCC 46 [2] = conditions: CVCC 46, 18 h
C. perfringens CVCC 1137 = conditions: CVCC 1137, 18 h
C. perfringens JT1 = conditions: JT1, 18 h
C. perfringens JC2 = conditions: JC2, 18 h
[3] = test system: human erythrocytes, epidermal keratinocytes, A549 cells, murine L929 fibroblasts, porcine intestinal epithelial cell line ZYMSIEC02; conditions: cited from earlier work
C. perfringens CVCC 46 [4] = test system: C. perfringens CVCC 46
C. perfringens CVCC 46 [5] = format: cell-based, Clostridium perfringens type A
C. perfringens CVCC 46 [6] = format: cell-based, Clostridium perfringens type A; remark: listed apart in the source
C. perfringens CVCC 51 = conditions: CVCC 51, 18 h
[7] = test system: C. perfringens genomic DNA; format: binding, Clostridium perfringens; conditions: 25°C
C. perfringens CVCC 46 [8] = format: cell-based, Clostridium perfringens type A; remark: listed apart in the source

SMILES: CC[C@H](C)[C@@H]1NC(=O)[C@H](CO)NC(=O)[C@H](CCCCN)NC(=O)[C@@H]2CSSC[C@@H](C(=O)N[C@@H](Cc3ccc(O)cc3)C(=O)O)NC(=O)[C@H](CCCCN)NC(=O)[C@@H]3CSSC[C@H](NC(=O)[C@H](CCCNC(=N)N)NC(=O)[C@H](CC(C)C)NC(=O)[C@H](CC(=O)O)NC(=O)[C@H](CC(=O)O)NC(=O)[C@H](CCC(=O)O)NC(=O)[C@H](CC(N)=O)NC(=O)[C@H](Cc4c[nH]c5ccccc45)NC(=O)[C@@H]4CCCN4C(=O)CNC(=O)[C@H](CC(N)=O)NC(=O)[C@@H](NC(=O)CNC(=O)[C@H](Cc4ccccc4)NC(=O)CN)CSSC[C@H](NC(=O)[C@H](Cc4ccc(O)cc4)NC(=O)CNC(=O)CNC(=O)[C@H](CCCCN)NC(=O)[C@H](Cc4ccc(O)cc4)NC(=O)CNC(=O)[C@H](CCCCN)NC1=O)C(=O)N[C@@H](C)C(=O)N[C@@H](CCCCN)C(=O)NCC(=O)NCC(=O)N[C@@H](Cc1ccccc1)C(=O)N[C@@H](C(C)C)C(=O)N3)C(=O)N[C@@H](Cc1c[nH]cn1)C(=O)N[C@@H](CC(N)=O)C(=O)N[C@@H](Cc1c[nH]cn1)C(=O)N2 [NZ2114]
- MIC (C. perfringens JZ10): >14.5 µM
- Binding to genomic DNA (gel retardation) [1]: interacted with MDR C. perfringens CVCC 46 genomic DNA
- Peptide/DNA mass ratio for complete retardation of DNA migration [1]: > 10.0
- MBC (C. perfringens CVCC 46 [2]): 0.91 µM (≈ 4.01 µg/mL)
- MIC (C. perfringens CVCC 46 [2]): 0.91 µM (≈ 4.01 µg/mL)
- MIC (C. perfringens CVCC 1137): 1.81 µM (≈ 7.98 µg/mL)
- MIC (C. perfringens JT1): 0.46 µM (≈ 2.03 µg/mL)
- MIC (C. perfringens JC2): >14.5 µM
- Hemolysis / cytotoxicity [3]: non-hemolytic or non-cytotoxic
- MICa (MIC of drug used alone) (C. perfringens CVCC 46 [4]): 0.91 µM
- FICI, range over the tested antibiotics (C. perfringens CVCC 46 [4]; CVCC 46): 0.5~0.75
- Ratio of cells in phase I (C. perfringens CVCC 46 [5]): 9.08% and 17.32%
- PI-stained percentages of cells, range over time (C. perfringens CVCC 46 [6]): 41.6~97.9%
- MIC (C. perfringens CVCC 51): 0.91 µM (≈ 4.01 µg/mL)
- Change of CD spectrum of genomic DNA [7]: DNA ellipticity intensity decreased
- Shift of CD spectrum of genomic DNA [7]: slight redshift
- Bacterial regrowth in time-kill curve (C. perfringens CVCC 46 [8]): no bacterial regrowth
- Time to 99.9% reduction of bacterial counts (C. perfringens CVCC 46 [8]): ≤ 1 h
